# Library screen at single concentrations

Source: ChEMBL document CHEMBL3988442, “University of Dundee, Small-Polar-MMV Screening Library” (2021).

Each number is a percent effect as filed. How 0% and 100% were set is not recorded. Most values in the screen are low, and negative values occur. Many other results are left out here, so strong results are more common than in the screen. Two or more numbers in one place are separate tests of the same structure; such repeats can differ widely. A dash means the value is not listed here; it may have been measured.

Mtb glucose medium: 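Growth of Mycobacterium tuberculosis over 3 days (7H9 medium with glucose and tyloxapol); the read-out is not stated. Compounds at 50 µM. The record gives no direction; compounds that gave an IC50 in retests scored well above the rest, so higher reads as more growth inhibition. About 69,000 compounds were tested under these conditions; 1.1% (about 760) showed 50% or more at least once.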
Mtb cholesterol medium: 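Phenotypic screen: M. tuberculosis growth, cholesterol and DPPC medium, 4 days; the read-out is not stated. Concentration: 50 µM. Direction is inferred from retests: higher values go with more growth inhibition. Of about 69,000 compounds tested this way, about 370 (0.54%) reached 50% or more in at least one test.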

| structure | Mtb glucose medium | Mtb cholesterol medium |
|---|---|---|
| `CCc1ccc(OCC(=O)N2CCN(CC)CC2)cc1` | 12.71% and 16.95% | 22% |
| `Cc1cc(C)cc(OCC(=O)N2CCC2)c1` | 4.947% | - |
| `CCc1nc(CN2CCCC(N(C)CCc3cccs3)C2)no1` (centres undefined) | - | -23.62% |
| `Cc1cccc2cc(CO)c(N3Cc4cnc(C(C)(C)C)nc4C3)nc12` | 92.11% and 5.848% | - |
| `O=C(COCc1ccccc1)Nc1ccccn1` | - | 18.46% |
| `O=C(NCCCNc1ccc(C(F)(F)F)cn1)c1ccccc1` | 43.59% | 26.12% |
| `N#Cc1cc(Cl)ccc1N1CCN(C(=O)C2CCC2)CC1` | 102% and 12.93% | - |
| `Cl.Cl.[H][C@@]12CN(CCc3ccccc3)C[C@]1([H])C2CN` (some centres undefined) | - | -20.15% |
| `CCC(CNC(=O)c1ccccc1Br)N1CCc2ccccc2C1` (centres undefined) | 17.94% and 10.77% | - |
| `O=C(c1cnc(C2CC2)nc1)N1CCCC(c2nccs2)C1` (centres undefined) | - | 60.36% and 26.23% |
| `Cc1nc(C(=O)N(CC(=O)N(C)C)CC(F)(F)F)c2ccccn12` | 1.278% and -4.286% | - |
| `CCN1CC(COC(=O)c2cc(Br)ccc2F)CC1=O` (centres undefined) | 30.68% | - |
| `Cc1c(Br)cccc1C(=O)Nc1cc(C(N)=O)n(C)c1` | -2.544% | 18.34% |
| `CCOc1cc(F)ccc1NC1CCN(CC(F)(F)F)C1=O` (centres undefined) | 55.56% | - |
| `c1csc(CCNc2nc(-c3ccncc3)nc3c2CCNCC3)c1` | 52.53% and 49.98% | - |
| `Cc1nc(C2CCCN(C(=O)CCCOc3cccc(F)c3)C2)no1` (centres undefined) | - | 8.34% and -6.066% |
| `COC(C)c1cccc(NCc2cccc(O)c2)c1` (centres undefined) | -12.51% | 9.74% |
| `CC(=O)NCCCOc1c(C)cccc1Cl` | 11.23% | - |
| `CC(=O)Nc1ccc(/C=C/c2ncc(C(=O)O)s2)cc1` | - | -6.63% |
| `CNc1cc(C)nc(NCc2cc(C)cc3c(C)c(C)[nH]c23)n1` | 60.92% and 65.02% | 72.99% |
| `CCn1nc(C)c2c1cnn2CCNS(=O)(=O)CC` | -1.736% | - |
| `Cc1cc(C2CCC2)nc(N(C)Cc2ncccc2C)n1` | -38.76% | - |
| `NC(=O)CNC(c1ccccc1)c1ccccc1` | -11.07% and -2.807% | - |
| `O=C(c1nnn(-c2ccc(C(F)(F)F)cc2)n1)N1CCC(O)CC1` | 42.68% and 25.65% | - |
| `COc1cc(OC)cc(-c2noc(CN)n2)c1` | -51.02% | -54.01% |
| `c1ccc(OCCSC2=NCCN2)cc1` | 32.06% | - |
| `CCN1CCN(CC(O)c2ccc(F)cc2)CC1` (centres undefined) | 16.95% | - |
| `CCSCCNc1nc2c(s1)c(C)nn2C` | 20.94% and 15.44% | - |
| `Cn1cc(C(=O)Nc2ccc3c(c2)CN(C(=O)c2ccco2)CC3)nn1` | 56.22% | - |
| `CCNC(=O)c1ccnc(N2CCCC(COc3ccccc3C)C2)c1` (centres undefined) | 33.13% and 8.376% | 15.97% |
| `Cc1ccc(OCC(=O)Nc2ncccc2OC(F)F)cc1` | 3.636% and 18.99% | - |
| `Cc1ncc(CN(C)C(=O)Nc2cccc(N3CCNC3=O)c2)s1` | -18.2% | - |
| `[H][C@@]12CCC(=O)N(CCc3ccc(C)o3)[C@]1([H])CCN(Cc1cnn(C)c1)C2` | 13.3% | - |
| `O=C(NC1(C(=O)O)CCCCC1)C1Cc2ccccc2O1` (centres undefined) | 7.164% | - |
| `Cl.NCCNS(=O)(=O)Cc1ccc(Br)cc1` | -8.434% | - |
| `O=C(CC(SC1CCCCC1)C(=O)O)c1ccc(Br)cc1` (centres undefined) | 16.71% and -11.52% | - |
| `O=C(CCCc1ccccn1)N1CCSC2(CCCCC2)C1` | 12.04% | - |
| `COC1CCN(C(=O)Cn2ccc3ccccc32)CC1` | -18.84% and -6.288% | -19.81% |
| `CC(C)Oc1cccc(CN(C)C(=O)Cc2ccon2)c1` | 34.93% and -55.91% | - |
| `O=C(NCC1SCCc2ccccc21)c1cscn1` (centres undefined) | 33.38% | - |
| `Cc1ccc(C)c(-n2cc(CN3CCOCC3)c(-c3ccccc3)n2)c1` | 6.312% | - |
| `CCc1c(C)nc(-n2nc(-c3cccs3)cc2N)[nH]c1=O` | 62.91% | - |
| `CN(C)CCN1CCC(CNCc2c[nH]nc2C(C)(C)C)CC1` | -39.65% | -43.85% |
| `COc1ccc(NC(=O)c2cccc(OC)c2OC)cc1` | 22.63% | - |
| `Cc1cnn(CCNCc2nccn2Cc2ccccc2)c1` | 41.29% | 21.1% |
| `COc1cc(-c2cccc3c2OC(CN)C3)cc(OC)c1OC` (centres undefined) | 53.73% and 45.51% | - |
| `CNC(=O)[C@@H]1C[C@@H](N)CN1c1nnc(-c2ccccc2)s1` | -7.306% and -0.3358% | - |
| `c1ccc2sc(N3CCOC(Cn4cccn4)C3)nc2c1` (centres undefined) | 51.48% | - |
| `CN(C1CCCCC1)S(=O)(=O)N1CCN(Cc2ccon2)CC1` | -12.19% and 9.35% | - |
| `Cc1ccc(C(=O)Nc2nc(C)no2)cc1` | 23.52% | -6.459% |
| `COc1cc(CN2CCCC(Nc3cccc(F)c3)C2)cc(OC)c1O` (centres undefined) | 17.22% and 7.976% | 29.83% |
| `CCc1nc(-c2cccc(C(=O)O)c2)no1` | -22.37% | -19.7% |
| `COc1ccc(CCCN(C)C(=O)c2cc(Cl)c[nH]2)cc1OC` | 2.651% | 8.396% |
| `COc1ccc(C(=O)Nc2c(C(=O)N(C)C)nn(C)c2C)cc1` | - | -10.18% |
| `Cc1nc(CCCNC(=O)c2cc(F)ccc2O)n[nH]1` | 20.36% | 6.596% |
| `COCc1nc(N2CC[C@H](N(C)C)C2)c2cnn(C)c2n1` | 29.34% | - |
| `COCCC(=O)N1CCC(C(=O)c2cc(C)cnc2N)CC1` | - | 51.53% |
| `COc1cccc(C(CO)NC(=O)Cc2ccc(F)c(Br)c2)c1` (centres undefined) | - | 8.311% and 56.06% |
| `CCC(CO)NCc1ccc(-c2ccccc2F)o1` (centres undefined) | 4.278% and 29.07% | 28.98% |
| `COc1cc(Cl)c(CN2CCC(C(N)=O)C2)cc1Cl` (centres undefined) | -1.677% and 5.272% | - |
| `Cc1cc(=O)[nH]c(-n2nc(-c3ccccc3)cc2N)n1` | 75.81% | - |
| `FC(F)(F)COc1ccc(CSCc2ccon2)cn1` | 22.61% | 0.7301% |
| `Oc1nc(N2CCOCC2)nc2c1CCN(Cc1cccc(F)c1)CC2` | -11.45% | - |
| `Cc1ccc(CN2CCOC3(CCN(C(=O)C4CC=CC4)CC3)C2)cc1.O=C(O)C(F)(F)F` | 37.78% and 31.13% | 34.88% |
| `O=C(NCCc1c[nH]c2ccc(F)cc12)C1(n2cnnn2)CCCCC1` | 52.16% | 48.06% |
| `CCC(CO)NC(=O)Cc1ccc(NC(=O)CC2=CCCCC2)cc1` (centres undefined) | - | 12.39% and 56.26% |
| `Cl.Fc1cccc(CN2CCC(c3cc4ncccc4cn3)CC2)c1F` | 56.76% | 29.99% |
| `Cc1cc(C(=O)NCC(Cc2cccc(F)c2)N2CCCCC2=O)no1` (centres undefined) | -2.585% | -14.51% |
| `CCN(CC)c1nc(Nc2cccc(C(C)O)c2)nc2ccccc12` (centres undefined) | 104.3% | 96.35% |
| `CCOC(=O)N1CCN(C(=O)C2CC(=O)N(c3ccccc3Br)C2)CC1` (centres undefined) | 59.44% | 55.4% |
| `N#Cc1ccsc1NC(=O)CCN1CCn2c(nnc2C2CC2)C1` | -1.674% | - |
| `CCN(C)Cc1nc(-c2ccccc2NS(C)(=O)=O)oc1C` | - | 71.8% |
| `Cc1cc(C)n(C2CCCN(C(=O)Cc3cccs3)C2)n1` (centres undefined) | 50.81% | - |